Potato spindle tuber viroid, loop 6: variant abundance in plants

From the data files of Wu et al. 2024, doi:10.1371/journal.ppat.1012142.

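A pool of all variants was put on leaves of three Nicotiana benthamiana plants. Progeny were sequenced from the inoculated region (day 5), the margin of the inoculated leaf (day 10) and systemic leaves (day 12).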

PSTVd intermediate strain, loop 6: wild type UGACCGCGAG, pool pattern UNNNCGNNNG; upper and lower strand joined, each 5' to 3', the first 5 letters being the upper strand, closing pairs included.

Values are reads per thousand in the sample; higher means more abundant, 0 means not found. Each value is the mean of three plants. "Pool" is the share in the plasmid pool used as inoculum, on the same scale. The inoculated region was read from the minus strand, the other sites from the plus strand. For reference, wild type rose from 20.7 per thousand in the pool to 195, 198, 203 (inoculated region), 629, 591, 734 (leaf margin) and 942, 870, 868 (systemic leaves).

- UGUACGCUUG (pool 0.314): inoculated region 0.0779; leaf margin 0; systemic leaves 0
- UAUCCGCAGG (pool 0.144): inoculated region 0.0902; leaf margin 0; systemic leaves 0
- UCCUCCCUUG (pool 0.0131): inoculated region 0; leaf margin 0; systemic leaves 0
- UGACCGAAUG (pool 0.523): inoculated region 0.395; leaf margin 0.570; systemic leaves 0.124
- UACACGUACG (pool 0.105): inoculated region 0.554; leaf margin 0.109; systemic leaves 0
- UUAUCGCGUG (pool 0.235): inoculated region 0.124; leaf margin 0.00920; systemic leaves 0
- UUUACGCUCG (pool 0.222): inoculated region 0.114; leaf margin 0; systemic leaves 0
- UGGCCGGUAG (pool 0.261): inoculated region 0.107; leaf margin 0.00773; systemic leaves 0
- UUCGCGAAGG (pool 0.183): inoculated region 0.0659; leaf margin 0; systemic leaves 0
- UAGGCGAAGG (pool 0.144): inoculated region 0.0950; leaf margin 0; systemic leaves 0
- UGCACGGAGG (pool 0.235): inoculated region 0.0532; leaf margin 0; systemic leaves 0
- UGCGCGACAG (pool 0.196): inoculated region 0.0775; leaf margin 0; systemic leaves 0
- UCGCCGUCAG (pool 0.235): inoculated region 0.0536; leaf margin 0.00773; systemic leaves 0
- UUGACGUCUG (pool 0.379): inoculated region 0.0717; leaf margin 0.00773; systemic leaves 0
- UUAGCGUUCG (pool 0.235): inoculated region 0.0893; leaf margin 0.0184; systemic leaves 0
- UUUACACAGG (pool 0.0131): inoculated region 0; leaf margin 0; systemic leaves 0
- UUCACGUGGG (pool 0.222): inoculated region 0.0650; leaf margin 0; systemic leaves 0
- UCAACGCAUG (pool 0.144): inoculated region 0.0824; leaf margin 0; systemic leaves 0.0400
- UAUUCGGCCG (pool 0.235): inoculated region 0.571; leaf margin 0.0260; systemic leaves 0
- UGCCCGUGCG (pool 0.183): inoculated region 0.0954; leaf margin 0.00773; systemic leaves 0
- UCUUCGGAUG (pool 0.170): inoculated region 0.113; leaf margin 0; systemic leaves 0
- UUACCGGAAG (pool 0.131): inoculated region 0.210; leaf margin 0.0324; systemic leaves 0
- UAUACGCUAG (pool 0.196): inoculated region 0.119; leaf margin 0; systemic leaves 0.00684
- UCCUCGCACG (pool 0.170): inoculated region 0.0828; leaf margin 0; systemic leaves 0
- UUGCCGGUGG (pool 0.209): inoculated region 0.106; leaf margin 0.00841; systemic leaves 0.0120
- UCGCCGUUGG (pool 0.248): inoculated region 0.0847; leaf margin 0; systemic leaves 0
- UGAACGCCUG (pool 0.196): inoculated region 0.197; leaf margin 0.00773; systemic leaves 0
- UAUCCGCCCG (pool 0.301): inoculated region 0.113; leaf margin 0; systemic leaves 0
- GGACCGCUUG (pool 0.0261): inoculated region 0.0416; leaf margin 0; systemic leaves 0
- UUCCCGCGUG (pool 0.144): inoculated region 0.0956; leaf margin 0.0414; systemic leaves 0.00684
- UGACCGCGAG (pool 20.7): inoculated region 199; leaf margin 651; systemic leaves 893
- UUGCCGUUAG (pool 0.392): inoculated region 0.160; leaf margin 0.00920; systemic leaves 0
- UCACCGUGAG (pool 0.235): inoculated region 0.726; leaf margin 0.0492; systemic leaves 0
- UCGACGUUAG (pool 0.405): inoculated region 0.141; leaf margin 0.00920; systemic leaves 0
- UCUGCGUAUG (pool 0.327): inoculated region 0.0886; leaf margin 0.138; systemic leaves 0
- UUAGCGCUCG (pool 0.288): inoculated region 0.0840; leaf margin 0; systemic leaves 0

Extract of 2 entries:

UUGCCGUUAG (pool 0.392): inoculated region 0.160; leaf margin 0.00920; systemic leaves 0.
UCUUCGGAUG (pool 0.170): inoculated region 0.113; leaf margin 0; systemic leaves 0.

With 36,220-57,551 reads a sample, very low values are single reads. The authors trace changes outside the varied positions to PCR and sequencing errors or to mutation in the plant; presence does not show that a variant is infectious alone.